# Measurements taken from PubChem BioAssay AID504753 (Sanford-Burnham Center for Chemical Genomics, 2011).
# This is a selection; strong and weak results do not stand in their true shares. Activity calls are given as the source filed them.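 The calls were made as follows: active = inhibition of at least 50% at 20 µM in any single replicate; inactive = the rest.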
# Test system: glucose-6-phosphate dehydrogenase-6-phosphogluconolactonase (PfGluPho), Plasmodium falciparum 3D7
# Assay: malaria parasite PfGluPho enzyme inhibition – biochemical, fluorescence intensity, single concentration, confirmation (AID 504753);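 also: 0% = DMSO with substrate and 100% = DMSO lacking glucose-6-phosphate substrate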
# Conditions: recombinant PfGluPho, NADPH-diaphorase-resazurin fluorescence; at 20 µM; active compounds read high
row,Structure (SMILES),inhibition
1,C[N+]1=C2C=CC=CC=C2SC12C([N+](=O)[O-])=CC([N+](=O)[O-])=C[C-]2[N+](=O)[O-] (stereo not drawn),inactive: 17.9%
2,CN(C)C(=O)c1cc([N+](=O)[O-])cc2c1-c1c(cc([N+](=O)[O-])cc1[N+](=O)[O-])C2=O,active: 99.2%
3,O=P(Nc1nccs1)(c1ccccc1)c1nc2ccccc2s1 (stereo not drawn),inactive: 45.9%
